Anti-infective test results gathered from many reports (values: NIAID ChemDB through PubChem).

Shared fields: target-level tests; agent: HIV-1; protein: Reverse transcriptase; read by: nucleotide incorporation / radiometric; read-out: fold resistance

Rows are shuffled and stem from different studies. a–b is a range or a potency band. Fold resistance: result on the changed form divided by that on wild type.

Nc1ncnc2c1ncn2CCOCP(=O)(O)OP(=O)(O)OP(=O)(O)O ; changes: RT-M184V ; value: 0.57
CCN1c2ncc(CCOc3ccc(C(=O)O)c4ccccc34)cc2C(=O)N(C)c2cccnc21 ; changes: RT-K103N Y181C ; value: 1–10
CCC1(c2ccc(CNc3ccccc3)cc2)Oc2ccccc2-n2cccc2C1=O ; changes: RT-K103N ; value: 27.7
CC(C)=CCOc1cc(NC(=S)c2ccoc2C)ccc1Cl ; changes: RT-P225H ; value: 3.4
CCC1(c2cccc(Cl)c2)Oc2ccccc2-n2cccc2C1=O ; changes: RT-Y188L ; value: 13.8
CCOCn1c(Cc2ccccc2)c(C(C)C)c(=O)[nH]c1=O ; changes: RT-V106A P225H ; value: 113
CCN1c2ncc(CCOc3ccc4cc(C(=O)O)ccc4c3)cc2C(=O)N(C)c2cccnc21 ; changes: RT-K103N Y181C ; value: 1–10
Nc1ccn([C@H]2C[C@H](O)[C@@H](COP(=O)(O)OP(=O)(O)OP(=O)(O)O)O2)c(=O)n1 ; changes: RT-A62V V75I F77L F116Y Q151M ; value: 1.1
CCOc1cccc(C2(CC)Oc3ccccc3-n3cccc3C2=O)c1 ; changes: RT-V106A ; value: 6.3
CCN1c2ncc(CCOc3ccc(CC(N)=O)c4ccccc34)cc2C(=O)N(C)c2cccnc21 ; changes: RT-K103N Y181C ; value: 1
Cc1cn([C@H]2C=C[C@@H](COP(=O)(O)OP(=O)(O)OP(=O)(O)O)O2)c(=O)[nH]c1=O ; changes: RT-T139V ; value: 0.7
CCC1(c2ccc(COc3ccccc3Cl)cc2)Oc2ccccc2-n2cccc2C1=O ; changes: RT-Y181I ; value: >10
CCN1c2ncc(CCOc3ccc(C(=O)O)c4c3CCCC4)cc2C(=O)N(C)c2cccnc21 ; changes: RT-K103N Y181C ; value: 1–10
C=C(C)CCOCc1ccc(C2(CC)Oc3ccccc3-n3cccc3C2=O)cc1 ; changes: RT-K103N ; value: >3.57
Nc1ncnc2c1ncn2[C@H]1CC[C@@H](COP(=O)(O)OP(=O)(O)OP(=O)(O)O)O1 ; changes: RT-L74V ; value: 3.21
CCC1(c2ccc(I)cc2)Oc2ccccc2-n2cccc2C1=O ; changes: RT-Y188L ; value: 22.5
Nc1ccn([C@H]2CC[C@@H](COP(=O)(O)OP(=O)(O)OP(=O)(O)O)O2)c(=O)n1 ; changes: RT-V106A ; value: 0.68
CCC1(c2cccc(Cl)c2)Cc2ccccc2-n2cccc2C1=O ; changes: RT-Y181I ; value: >3
CCN1c2ncc(CCOc3ccc(/C(C)=C/C(=O)O)c4ccccc34)cc2C(=O)N(C)c2cccnc21 ; changes: RT-Y188L ; value: >10
Nc1ccn([C@H]2CC[C@@H](COP(=O)(O)OP(=O)(O)OP(=O)(O)O)O2)c(=O)n1 ; changes: RT-M184V ; value: 6.67
CC(C)=CCN1Cc2cc(Cl)cc3[nH]c(=O)n(c23)C[C@@H]1C ; changes: RT-V106A P225H ; value: 36

The last 3 rows once more:

compound	changes	value
CCN1c2ncc(CCOc3ccc(/C(C)=C/C(=O)O)c4ccccc34)cc2C(=O)N(C)c2cccnc21	RT-Y188L	>10
Nc1ccn([C@H]2CC[C@@H](COP(=O)(O)OP(=O)(O)OP(=O)(O)O)O2)c(=O)n1	RT-M184V	6.67
CC(C)=CCN1Cc2cc(Cl)cc3[nH]c(=O)n(c23)C[C@@H]1C	RT-V106A P225H	36